US9072759B2 (priority 2008, dated 2015)

What was measured:
Type in all cases: cell-based
[1] = test system: S. pneumoniae 303 Ery-R (ermB); conditions: cladinose table b63
[2] = test system: S. pneumoniae 163 Ery-R (MefA); conditions: cladinose table b63
[3] = test system: H. influenzae 49247 Ery-S; assay: microbe, parasite or virus in culture; conditions: for MIC: Haemophilus influenzae, 49247ERYS, read-out: MIC, H. influenzae 49247 Ery-S
S. aureus 25923 Ery-S = assay: microbe, parasite or virus in culture; conditions: Staphylococcus aureus, 25923ERYS, read-out: MIC, S. aureus 25923 Ery-S

For `CC[C@H]1OC(=O)[C@H](C)[C@@H](OC2CC(C)(OC)C(O)C(C)O2)[C@H](C)[C@@H](OC2OC(C)CC(N(C)C)C2O)[C@@](C)(OC)C[C@@H](C)C(=O)[C@H](C)[C@H]2N(CCCCn3cc(-c4cccnc4)nn3)C(=O)O[C@]12C` (stereo partly shown) [Entry 20b], the “MIC, S. pneumoniae 303 Ery-R (ermB)” value [1] was 1 µg/mL (≈ 1.03 µM) and the “MIC, S. pneumoniae 163 Ery-R (MefA)” value [2] was “≦0.06 μg/mL”.

In the case of `CC[C@H]1OC(=O)[C@H](C)[C@@H](OC2CC(C)(OC)C(O)C(C)O2)[C@H](C)[C@@H](OC2OC(C)CC(N(C)C)C2O)[C@@](C)(OC)C[C@@H](C)C(=O)[C@H](C)[C@H]2N(CCCCn3cc(-c4cccc(N)c4)nn3)C(=O)O[C@]12C` (stereo partly shown) [Entry 20c], the “MIC, S. pneumoniae 303 Ery-R (ermB)” value [1] is reported as 2 µg/mL (≈ 2.03 µM) and the “MIC, S. pneumoniae 163 Ery-R (MefA)” value [2] is reported as 0.5 µg/mL (≈ 0.506 µM).

`CC[C@H]1OC(=O)[C@@](C)(F)C(=O)[C@H](C)[C@@H](OC2OC(C)CC(N(C)C)C2O)[C@@](C)(OC)C[C@@H](C)C(=O)[C@H](C)[C@H]2N(CCCCn3cc(-c4ccccn4)nn3)C(=O)O[C@]12C` (stereo partly shown) [Entry 23a] was tested, and the “MIC, H. influenzae 49247 Ery-S” value [3] was 2 µg/mL (≈ 2.41 µM).

With `CC[C@H]1OC(=O)[C@H](C)[C@@H](OC2CC(C)(OC)C(O)C(C)O2)[C@H](C)[C@@H](OC2OC(C)CC(N(C)C)C2O)[C@@](C)(OC)C[C@@H](C)C(=O)[C@H](C)[C@H]2N(CCCCn3cc(COc4c(Cl)cccc4Cl)nn3)C(=O)O[C@]12C` (stereo partly shown) [Entry 20d] the “MIC, S. pneumoniae 303 Ery-R (ermB)” value [1] was 2 µg/mL (≈ 1.87 µM) and the “MIC, S. pneumoniae 163 Ery-R (MefA)” value [2] was 0.5 µg/mL (≈ 0.467 µM).

For `CC[C@H]1OC(=O)[C@@](C)(F)C(=O)[C@H](C)[C@@H](OC2OC(C)CC(N(C)C)C2O)[C@@](C)(OC)C[C@@H](C)C(=O)[C@H](C)[C@H]2N(CCCCn3cc(-c4cccc(N)c4)nn3)C(=O)O[C@]12C` (stereo partly shown) [CEM-101, 11-N-4-(3-aminophenyl)-[1,2,3]triazol-1-yl]-butyl}-5-desosaminyl-3-oxo-2-fluoro-erythronolide A,-11,12-cyclic carbamate], the MIC [3] was 2 µg/mL (≈ 2.37 µM).

Compound `CC[C@H]1OC(=O)[C@H](C)C(=O)[C@H](C)[C@@H](O[C@@H]2O[C@H](C)C[C@H](N(C)C)[C@H]2O)[C@](C)(OC)C[C@@H](C)C(=O)[C@H](C)[C@H]2N(CCCCn3cnc(-c4cccnc4)c3)C(=O)O[C@]12C` [TEL, Telithromycin] has an MIC [3] of 4 µg/mL (≈ 4.93 µM) and an MIC (S. aureus 25923 Ery-S) of at most 0.25 µg/mL.

In the case of `CC[C@H]1OC(=O)[C@H](C)[C@@H](OC2CC(C)(OC)C(O)C(C)O2)[C@H](C)[C@@H](OC2OC(C)CC(N(C)C)C2O)[C@@](C)(OC)C[C@@H](C)C(=O)[C@H](C)[C@H]2N(CCCCn3cc(-c4ccccn4)nn3)C(=O)O[C@]12C` (stereo partly shown) [Entry 20a], the “MIC, S. pneumoniae 303 Ery-R (ermB)” value [1] is reported as 2 µg/mL (≈ 2.06 µM).

`CC[C@H]1OC(=O)[C@H](C)[C@@H](OC2CC(C)(OC)C(O)C(C)O2)[C@H](C)[C@@H](OC2OC(C)CC(N(C)C)C2O)[C@@](C)(OC)C[C@@H](C)C(=O)[C@H](C)[C@H]2N(CCCCn3cc(Cn4nnc5ccccc54)nn3)C(=O)O[C@]12C` (stereo partly shown) [Entry 20e] was tested, and the “MIC, S. pneumoniae 303 Ery-R (ermB)” value [1] was 2 µg/mL (≈ 1.95 µM) and the “MIC, S. pneumoniae 163 Ery-R (MefA)” value [2] was 0.5 µg/mL (≈ 0.487 µM).

≈ marks a conversion by molar mass, not a printed value.
